Laboratory results taken from ChEMBL document CHEMBL6134870 (J Med Chem, 2025).

Sequences of proteins named here, by UniProt entry; tags and fusion partners are left off.
UniProt P0DPI0, whole entry, looked up: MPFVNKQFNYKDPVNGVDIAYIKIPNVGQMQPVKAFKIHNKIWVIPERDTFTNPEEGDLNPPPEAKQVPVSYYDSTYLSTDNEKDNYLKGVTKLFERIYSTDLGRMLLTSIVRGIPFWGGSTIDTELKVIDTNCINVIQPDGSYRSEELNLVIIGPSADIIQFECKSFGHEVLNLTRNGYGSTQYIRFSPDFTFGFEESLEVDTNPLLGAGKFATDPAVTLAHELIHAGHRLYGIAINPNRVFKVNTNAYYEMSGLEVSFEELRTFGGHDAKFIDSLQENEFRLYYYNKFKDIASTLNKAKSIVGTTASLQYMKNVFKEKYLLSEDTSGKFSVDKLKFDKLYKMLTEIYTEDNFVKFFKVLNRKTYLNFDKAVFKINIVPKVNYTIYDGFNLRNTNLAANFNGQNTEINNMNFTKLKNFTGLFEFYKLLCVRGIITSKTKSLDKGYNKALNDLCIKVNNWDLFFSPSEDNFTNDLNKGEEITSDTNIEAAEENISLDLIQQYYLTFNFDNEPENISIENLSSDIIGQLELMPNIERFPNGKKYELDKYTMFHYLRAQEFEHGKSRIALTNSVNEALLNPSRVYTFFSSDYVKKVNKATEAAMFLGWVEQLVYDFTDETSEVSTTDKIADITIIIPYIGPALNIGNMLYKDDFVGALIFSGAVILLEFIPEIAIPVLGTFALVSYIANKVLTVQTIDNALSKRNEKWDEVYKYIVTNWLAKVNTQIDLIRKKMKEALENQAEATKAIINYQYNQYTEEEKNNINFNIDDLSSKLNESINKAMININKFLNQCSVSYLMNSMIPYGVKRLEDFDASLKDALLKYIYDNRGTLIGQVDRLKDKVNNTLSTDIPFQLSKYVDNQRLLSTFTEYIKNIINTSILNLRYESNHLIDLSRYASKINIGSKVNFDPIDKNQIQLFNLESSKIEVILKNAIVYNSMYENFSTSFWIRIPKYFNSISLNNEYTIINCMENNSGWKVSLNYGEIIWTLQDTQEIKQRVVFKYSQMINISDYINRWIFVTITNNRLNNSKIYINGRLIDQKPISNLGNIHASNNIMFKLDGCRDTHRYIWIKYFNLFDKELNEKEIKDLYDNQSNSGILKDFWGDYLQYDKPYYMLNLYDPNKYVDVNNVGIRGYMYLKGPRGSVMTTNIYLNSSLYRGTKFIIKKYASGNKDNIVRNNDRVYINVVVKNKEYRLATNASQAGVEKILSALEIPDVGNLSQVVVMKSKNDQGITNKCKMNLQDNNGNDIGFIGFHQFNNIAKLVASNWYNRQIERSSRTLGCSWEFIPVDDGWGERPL

Key:
[1] = target: Botulinum neurotoxin type A (Clostridium botulinum) (UniProt P0DPI0); assay: Competitive inhibition of Botulinum neurotoxins A assessed as interaction factor alpha in presence of DCHA
[2] = target: Botulinum neurotoxin type A (Clostridium botulinum) (UniProt P0DPI0); assay: Covalent inhibition of Botulinum neurotoxins A light chain assessed as dissociation constant for GSH

Row | SMILES | Activity [1] | K [2]
1 | S=C1Cc2cc(Br)ccc2N1 | 25 | 
2 | NC(=O)CI |  | 0.167 M⁻¹ s⁻¹
